Consider 1 compound from the supplement of paper PMC12137928.

Some results are limits rather than exact numbers.

For the test, the system named is HCT116. Conditions: 72 h. The method, boiled down:
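For IC50 and maximal efficacy, four-parameter Hill fits were used. Input values were CellTiter-Glo luminescence from HCT116 cells seeded at 250 per well in 1536-well plates, normalized to vehicle (0%) and positive control (-100%). Pattern correction followed normalization.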

For `CCOP(=O)(OCC)SCC[N+](C)(C)C` [Echothiophate Iodide], the IC50 cell viability is over 45.8 µM (ICRF193 0 nM) and over 45.8 µM (ICRF193 200 nM).
